Data from publication PMC8594587 (Journal of medicinal chemistry, 2021).

What follows are compounds tested on HIV-1 F227L+V106A (assay: not given). Details: EC50 ratio to RPV.
Assay type: cell-based

In the case of `Cc1cc(C#N)cc(C)c1Oc1nc(NC2CCN(Cc3ccc(C(N)=O)cc3)CC2)ncc1-c1ccncc1` [Compound 16c, 4-((4-((4-(4-cyano-2,6-dimethylphenoxy)-5-(pyridin-4-yl)pyrimidin-2-yl)amino)piperidin-1-yl)methyl)benzamide], the “fold activity enhancement over RPV, F227L+V106A” value is reported as 7.8 fold.

What follows are compounds tested on HIV-1 Y188L (assay: Activity against mutant HIV-1 strain Y188L in MT-4 cells, MTT method). Details: EC50 ratio to RPV.
Assay type: cell-based

In the case of `Cc1cc(C#N)cc(C)c1Oc1nc(NC2CCN(Cc3ccc(C(N)=O)cc3)CC2)ncc1-c1ccncc1` [Compound 16c, 4-((4-((4-(4-cyano-2,6-dimethylphenoxy)-5-(pyridin-4-yl)pyrimidin-2-yl)amino)piperidin-1-yl)methyl)benzamide], the “fold activity enhancement over RPV, Y188L” value is reported as 11 fold.

Each compound was assayed on HIV-2 ROD (assay: Anti-HIV-2 ROD activity in MT-4 cells, MTT method). Details: Human immunodeficiency virus 2, MT4, read-out: EC50 ROD.
Assay type: cell-based

`Cc1cc(C#N)cc(C)c1Oc1nc(NC2CCN(Cc3ccc(S(N)(=O)=O)cc3)CC2)ncc1-c1ccco1` [Compound 13a, 4-((4-((4-(4-cyano-2,6-dimethylphenoxy)-5-(furan-2-yl)pyrimidin-2-yl)amino)piperidin-1-yl)methyl)benzenesulfonamide] and `Cc1cc(C#N)cc(C)c1Oc1nc(NC2CCN(Cc3ccc(S(N)(=O)=O)cc3)CC2)ncc1-c1ccoc1` [Compound 14a, 4-((4-((4-(4-cyano-2,6-dimethylphenoxy)-5-(furan-3-yl)pyrimidin-2-yl)amino)piperidin-1-yl)methyl)benzenesulfonamide] cannot be ordered by EC50: > 11.2 µM for the first, > 29.1 µM for the second.

`Cc1cc(C#N)cc(C)c1Oc1nc(NC2CCN(Cc3ccc(C(N)=O)cc3)CC2)ncc1-c1cccs1` [Compound 11c, 4-((4-((4-(4-cyano-2,6-dimethylphenoxy)-5-(thiophen-2-yl)pyrimidin-2-yl)amino)piperidin-1-yl)methyl)benzamide] and `Cc1cc(C#N)cc(C)c1Oc1nc(NC2CCN(Cc3ccc(C(N)=O)cc3)CC2)ncc1-c1ccsc1` [Compound 12c, 4-((4-((4-(4-cyano-2,6-dimethylphenoxy)-5-(thiophen-3-yl)pyrimidin-2-yl)amino)piperidin-1-yl)methyl)benzamide] cannot be ordered by EC50: > 9.26 µM for the first, > 37.3 µM for the second.

`Cc1cc(C#N)cc(C)c1Oc1nc(NC2CCN(Cc3ccc(S(N)(=O)=O)cc3)CC2)ncc1-c1ccncc1` [Compound 16a, 4-((4-((4-(4-cyano-2,6-dimethylphenoxy)-5-(pyridin-4-yl)pyrimidin-2-yl)amino)piperidin-1-yl)methyl)benzenesulfonamide] and `Cc1cc(C#N)cc(C)c1Oc1nc(NC2CCN(Cc3ccc(S(C)(=O)=O)cc3)CC2)ncc1-c1ccncc1` [Compound 16b, 3,5-dimethyl-4-((2-((1-(4-(methylsulfonyl)benzyl)piperidin-4-yl)amino)-5-(pyridin-4-yl)pyrimidin-4-yl)oxy)benzonitrile] cannot be ordered by EC50: > 5.67 µM for the first, > 17.2 µM for the second.

`Cc1cc(C#N)cc(C)c1Oc1nc(NC2CCN(Cc3ccc(S(C)(=O)=O)cc3)CC2)ncc1-c1ccccc1` [Compound 15b, 3,5-dimethyl-4-((2-((1-(4-(methylsulfonyl)benzyl)piperidin-4-yl)amino)-5-phenylpyrimidin-4-yl)oxy)benzonitrile] and `Cc1cc(C#N)cc(C)c1Oc1nc(NC2CCN(Cc3ccc(S(N)(=O)=O)cc3)CC2)ncc1-c1ccccc1` [Compound 15a, 4-((4-((4-(4-cyano-2,6-dimethylphenoxy)-5-phenylpyrimidin-2-yl)amino)piperidin-1-yl)methyl)benzenesulfonamide] cannot be ordered by EC50: > 12.1 µM for the first, > 14.1 µM for the second.

`Cc1cc(C#N)cc(C)c1Oc1nc(NC2CCN(Cc3ccc(S(C)(=O)=O)cc3)CC2)ncc1-c1ccsc1` [Compound 12b, 3,5-dimethyl-4-((2-((1-(4-(methylsulfonyl)benzyl)piperidin-4-yl)amino)-5-(thiophen-3-yl)pyrimidin-4-yl)oxy)benzonitrile] and `Cc1cc(C#N)cc(C)c1Oc1nc(NC2CCN(Cc3ccc(S(C)(=O)=O)cc3)CC2)ncc1-c1ccoc1` [Compound 14b, 4-((5-(furan-3-yl)-2-((1-(4-(methylsulfonyl)benzyl)piperidin-4-yl)amino)pyrimidin-4-yl)oxy)-3,5-dimethylbenzonitrile] cannot be ordered by EC50: > 4.25 µM for the first, > 55.8 µM for the second.

`Cc1cc(C#N)cc(C)c1Oc1nc(NC2CCN(Cc3ccc(S(C)(=O)=O)cc3)CC2)ncc1-c1cccs1` [Compound 11b, 3,5-dimethyl-4-((2-((1-(4-(methylsulfonyl)benzyl)piperidin-4-yl)amino)-5-(thiophen-2-yl)pyrimidin-4-yl)oxy)benzonitrile] and `Cc1cc(C#N)cc(C)c1Oc1nc(NC2CCN(Cc3ccc(C(N)=O)cc3)CC2)ncc1-c1ccco1` [Compound 13c, 4-((4-((4-(4-cyano-2,6-dimethylphenoxy)-5-(furan-2-yl)pyrimidin-2-yl)amino)piperidin-1-yl)methyl)benzamide] cannot be ordered by EC50: > 8.38 µM for the first, > 7.35 µM for the second.
